Results of unrelated studies side by side (data: NIAID ChemDB).

Common to all: enzyme or target tests; organism: Hepatitis C virus; protein: RNA-dependent RNA polymerase; measure: IC50

Neighbouring rows are from separate reports. a–b is a range or a potency band. ICn: concentration for n% inhibition.

SMILES	result
CC(C)C[C@@]1(C(=O)O)C=C(C(=O)NCC2CCCCC2)[C@H](c2nccs2)N1C(=O)c1ccc(C(C)(C)C)cc1	<50 µM
Cc1ccc(C(=O)NCCN(C)C)c(Nc2ccc3cn[nH]c3c2)n1	<0.1 µg/mL
CC(C)C[C@@]1(C(=O)OC(C)(C)C)C=C(C(N)=O)[C@H](c2nccs2)N1C(=O)c1ccc(C(C)(C)C)c(Br)c1	<50 µM
CNC(=O)c1ccc(C)nc1Nc1ccc2cn[nH]c2c1	~0.1 µg/mL
Oc1cc(/C=N\N2CCOCC2)cc(O)c1O	10 µM
Cc1cc(C(=O)N2[C@@H](c3nccs3)[C@H](C#N)C[C@@]2(CC(C)C)C(=O)O)ccc1C(C)(C)C	<10 µM
CC(C)C[C@@]1(C(=O)O)C[C@@H](c2ncn(C)n2)[C@H](c2nccs2)N1C(=O)c1ccc(C(C)(C)C)cc1	<50 µM
NN1CCN(/N=C\c2cc(O)c(O)c(O)c2)CC1	5 µM
CC(C)C[C@@]1(C(=O)O)C[C@H](c2ncno2)[C@H](c2nccs2)N1C(=O)c1ccc(C(C)(C)C)cc1	<50 µM
COc1cc(C(=O)N2[C@@H](c3ccccn3)[C@H](C#N)C[C@@]2(CC(C)C)C(=O)O)ccc1C(C)(C)C	<10 µM
O=C(O)[C@H](Cc1ccccc1)N(Cc1cccc(-c2cc3ccccc3o2)c1)C(=O)c1ccc(Cl)cc1Br	<5 µM
Cc1ccc(C(=O)NN2CCOCC2)c(Nc2ccc3[nH]ncc3c2)n1	<0.1 µg/mL
FC(F)(F)Oc1ccc(COc2ccc(-c3cnc4c(-c5nn[nH]n5)cnn4c3C3CCCCC3)cc2)cc1Cl	1–10 µM
COc1cc(C)c(S(=O)(=O)N(Cc2c(C(=O)c3ccc(Cl)cc3)oc3ccccc23)[C@@H](Cc2ccccc2)C(=O)O)c(C)c1C	5–20 µM
C[N+]1(Cc2ccccc2)CCN(/N=C\c2ccc(O)c(O)c2)CC1	>400 µM
O=C(O)c1cc2ncc(-c3ccccc3)c(-c3ccc(Cl)cc3)n2n1	>10 µM
CC(C)C[C@@]1(C(=O)O)C=C(C(N)=O)[C@H](c2nccs2)N1C(=O)c1ccc(C(C)(C)C)c(Br)c1	<50 µM
COc1cc(C(=O)N2[C@@H](c3cccs3)[C@@H](c3nc(C)no3)C[C@@]2(CC(C)C)C(=O)O)ccc1C(C)(C)C	<50 µM
COc1cc(C(=O)N2[C@@H](c3cscn3)[C@H](C#N)C[C@@]2(CC(C)C)C(=O)O)ccc1C(C)(C)C	<10 µM
O=C(O)C(Cc1ccccc1)N(Cc1ccc(-c2ccncc2)s1)C(=O)c1ccc(Cl)cc1Cl	<5 µM
CC(C)C[C@@]1(C(=O)O)C=C(C(=O)NCC#N)[C@H](c2nccs2)N1C(=O)c1ccc(C(C)(C)C)cc1	<50 µM
Oc1ccc(/C=N\N2CCOCC2)cc1O	>400 µM
CO[C@@H]1[C@H](OP([O-])(=S)OC[C@@H]2C[C@@H](O)[C@H](n3ccc(N)nc3=O)O2)[C@@H](COP(=O)(O)O)O[C@H]1n1cnc2c(=O)[nH]c(N)nc21	50 µM
Cc1ccc(C(=O)Nc2cccnc2)c(Nc2ccc3[nH]ncc3c2)n1	<1 µg/mL
CC1=C(C(N)=O)[C@H](c2nccs2)N(C(=O)c2ccc(C(C)(C)C)cc2)[C@]1(CC(C)C)C(=O)O	<50 µM
CC(C)C[C@@]1(C(=O)O)C[C@H](c2ncno2)[C@H](c2nccs2)N1C(=O)c1ccc(C(C)(C)C)c(Br)c1	<50 µM
COc1cc(C(=O)N2[C@@H](c3cccs3)[C@H](C#N)C[C@@]2(CC(C)C)C(=O)O)ccc1C(C)(C)C	<10 µM
CC(C)C[C@@]1(C(=O)O)C[C@H](c2nccs2)[C@H](c2nccs2)N1C(=O)c1ccc(C(C)(C)C)cc1	<50 µM
CC(C)CNC(=O)C1=C[C@@](CC(C)C)(C(=O)O)N(C(=O)c2ccc(C(C)(C)C)cc2)[C@H]1c1nccs1	<50 µM
O=C(O)[C@H](Cc1ccccc1)N(Cc1ccc(Br)cc1)C(=O)c1ccc(Cl)cc1Cl	<5 µM
CC(C)C[C@@]1(C(=O)O)C[C@H](c2nc3ccccc3s2)[C@H](c2nccs2)N1C(=O)c1ccc(C(C)(C)C)c(Br)c1	<50 µM
COc1cc(C(=O)N2[C@@H](c3cscn3)[C@@H](C#N)C[C@@]2(CC(C)C)C(=O)O)ccc1C(C)(C)C	<10 µM

For reference, 3 entries again:

CC(C)C[C@@]1(C(=O)O)C[C@H](c2nccs2)[C@H](c2nccs2)N1C(=O)c1ccc(C(C)(C)C)cc1 ; result: <50 µM
O=C(O)c1cc2ncc(-c3ccccc3)c(-c3ccc(Cl)cc3)n2n1 ; result: >10 µM
Cc1ccc(C(=O)NCCN(C)C)c(Nc2ccc3cn[nH]c3c2)n1 ; result: <0.1 µg/mL